Results of unrelated studies side by side (data: NIAID ChemDB).

Common to all: host cell toxicity; read-out: CC50

Rows are shuffled and stem from different studies.

smiles	read by	cells	result
CCOCC(=O)O[C@@H](C[C@@H](C)[C@]12CC[C@@]3(C)[C@@]1(C[C@H](OC(=O)COCC)[C@H]1[C@@]4(C)CCC(=O)C(C)(C)[C@@H]4CC[C@@]13C)O2)[C@@H](OC(=O)COCC)C(C)(C)O	-	HepG2.2.15	250 µM
O=C1N(Cc2ccc(COc3ccc(-c4ccc(Cl)cc4)cc3)cc2)CCN1c1ccncc1	-	RD	>1.25 µM
Cc1cn([C@@H]2O[C@H](COC(c3ccccc3)(c3ccccc3)c3ccccc3)[C@H](O)[C@H]2N=[N+]=[N-])c(=O)[nH]c1=O	-	HL-60	>1000 µM
CC(C)N(Cc1cccc(OCCCCCC(=O)OC(=O)O)c1)C(=O)c1ccc(-c2cccc(Br)c2)cc1	-	BJ	>20 µM
CCN(CC)C(=O)OCC1CN(C(=O)c2cc(OC)c(OC)c(OC)c2)CCN1C(c1ccccc1)c1ccccc1	neutral red	MDM	≥100 µM
O=C(NCCc1ccc2c(n1)NCCC2)Nc1cccc(-c2ccc(F)cc2F)n1	-	PBMC	50 µM
O=C1N(CCC(CCOc2ccc(-c3ccc(Cl)cc3)cc2)c2ccccc2)CCN1c1ccncc1	-	RD	>25 µM
CCOCC(=O)O[C@@H](C[C@@H](C)C1=C2C[C@H](OC(=O)COCC)[C@H]3[C@@]4(C)CCC(=O)C(C)(C)[C@@H]4CC[C@]3(C)[C@@]2(C)CC1)[C@@H](OC(=O)COCC)C(C)(C)O	-	HepG2.2.15	>2300 µM
O=C1c2ccccc2N(Cc2ccc(Cl)cc2)S(=O)(=O)N1CC1CCCCC1	-	MRC-5	11.9 µM
O=C1C[C@H](Cc2nccs2)N1C(=O)NCc1ccc([N+](=O)[O-])cc1	MTT	COS-7	>29 µM
CCC1(Cc2ccccc2)OS(=O)(=O)C=C1OCCCCCCc1ccccc1	-	HEL fibroblasts	<200 µM
CCCCN1C(=O)c2ccccc2N(Cc2ccc(OC)cc2)S1(=O)=O	-	MRC-5	59.1 µM
C[C@H](C[C@H](OC(=O)C1CC1)[C@@H](OC(=O)C1CC1)C(C)(C)O)C1=C2C[C@H](OC(=O)C3CC3)[C@H]3[C@@]4(C)CCC(=O)C(C)(C)[C@@H]4CC[C@]3(C)[C@@]2(C)CC1	-	HepG2.2.15	>1000 µM
O=C1C[C@H](Cc2cccs2)N1C(=O)NCc1ccc([N+](=O)[O-])cc1	MTT	COS-7	>79 µM
O=c1[nH]c(=O)n(C2C[C@H](CO)[C@H]2CO)cc1C=CBr	-	WI-38	≥750 µM
O=C1N(Cc2cccc(COc3ccc(-c4ccc(Cl)cc4)cc3)n2)CCN1c1ccncc1	-	RD	>25 µM
O=C(Cc1cnc2[nH]c3ccccc3n2c1=O)c1ccccc1	-	HEF	40 µg/mL
Cc1cn([C@@H]2O[C@H](CO)[C@@H](O)[C@@H]2F)c(=O)[nH]c1=O	-	HL-60	>1000 µM
CCN(CC)C(=O)OCC1CN(C(=O)c2cc(OC)c(OC)c(OC)c2)CCN1	neutral red	MDM	>100 µM
O=C1C[C@H](Cc2nccs2)N1C(=O)NCc1ccc(C(F)(F)F)cc1	MTT	COS-7	>116 µM
CC(CCCN1CCN(c2ccncc2)C1=O)COc1ccc(-c2ccc(Cl)cc2)cc1	-	RD	>25 µM
COc1cccc2ccc(N3CCC(c4nc(-c5ccc(NCCO)nc5)no4)CC3)nc12	MTS	HepH2	>100 µM
CCCCOc1c(OC)cc(C(=O)N2CCN(Cc3ccccc3)CC2COC(=O)N(CC)CC)cc1OC	neutral red	MDM	≥20 µM
CCN1C(=O)c2ccccc2N(Cc2ccc(Cl)cc2)S1(=O)=O	-	MRC-5	7.1 µM
N#CCO/N=C/c1ccc(OCCC2CCN(c3ccc(Cl)nn3)CC2)cc1	visual reading	MRC-5	0.6 µg/mL
CCOC(=O)CCCCCOc1cccc(CN(C(=O)c2ccc(-c3cccc(Cl)c3)cc2)C(C)C)c1	-	HEK 293	<13.5 µM
Cc1cn([C@@H]2O[C@H](COC(c3ccccc3)(c3ccccc3)c3ccccc3)[C@@H](F)[C@H]2N=[N+]=[N-])c(=O)[nH]c1=O	-	HL-60	>1000 µM
CC(=O)Nc1cccc(CCNC(=O)NCc2ccc(Cl)c(Cl)c2)n1	-	PBMC	50 µM
CC(=O)Nc1ccc(/C=N/n2cn[nH]c2=S)cc1	MTT	Fibroblast L929	>100 µg/mL
C=C(C)[C@H](OC(=O)COC)[C@H](C[C@@H](C)C1=C2C[C@H](OC(=O)COC)[C@H]3[C@@]4(C)CCC(=O)C(C)(C)[C@@H]4CC[C@]3(C)[C@@]2(C)CC1)OC(=O)COC	-	HepG2.2.15	>2800 µM
N#Cc1cc(CC(=O)c2ccccc2)c(=O)n2c1oc1ccccc12	-	HEF	40 µg/mL
CCn1nnc(-c2ccc(OCCC(C)CCN3CCN(c4ccncc4)C3=O)cc2)n1	-	RD	>12.5 µM
CC(C)N(Cc1cccc(OCCCCCC(=O)OC(=O)O)c1)C(=O)c1ccc(-c2ccco2)cc1	-	RAJI	>20 µM
Cc1cn([C@@H]2O[C@H](CO)[C@@H](N=[N+]=[N-])[C@H]2F)c(=O)[nH]c1=O	-	HL-60	>1000 µM
CCO/N=C/c1ccc(OCCC2CCN(c3ccc(C)nn3)CC2)c(O)c1	neutral red	MRC-5	>0.1 µg/mL
Cn1nnc(C[C@H]2CC(=O)N2C(=O)NCc2ccc(C(F)(F)F)cc2)n1	MTT	COS-7	>195 µM
C=C(C)[C@H](OC(=O)CCCC)[C@H](C[C@@H](C)C1=C2C[C@H](OC(=O)CCCC)[C@H]3[C@@]4(C)CCC(=O)C(C)(C)[C@@H]4CC[C@]3(C)[C@@]2(C)CC1)OC(=O)CCCC	-	HepG2.2.15	>920 µM
CCO/N=C/c1ccc(OCCC2CCN(c3nnc(C(F)(F)F)s3)CC2)cc1	neutral red	MRC-5	>0.5 µg/mL
O=C(NCCc1ccc2c(n1)NCCC2)NCC1CCc2ccccc2C1	-	PBMC	13 µM
Cc1cn([C@@H]2O[C@H](CO)[C@@H](F)[C@@H]2F)c(=O)[nH]c1=O	-	HL-60	>1000 µM
CCOc1cccc(-c2ccc(C(=O)N(Cc3cccc(OCCCCCC(=O)OC(=O)O)c3)C(C)C)cc2)c1	-	BJ	>20 µM
CCOC(=O)c1cc(CC(=O)c2ccccc2)c(=O)n2c1oc1ccccc12	-	HEF	40 µg/mL
CCOC(=O)CCCCCOc1cccc(CN(C(=O)c2ccc(-c3cccc(S(C)(=O)=O)c3)cc2)C(C)C)c1	-	RAJI	>20 µM
O=C(NCCc1ccc2c(n1)NCCC2)Nc1ccc(F)c(F)c1F	-	PBMC	24 µM
CC(C)C1(Cc2ccccc2)OS(=O)(=O)C=C1OCc1ccccc1	-	HEL fibroblasts	>200 µM
CN(C(=O)CCc1ccc2c(n1)NCCC2)c1ccc(Cl)c(Cl)c1	-	PBMC	13 µM
CC(CCCCN1CCN(c2ccncc2)C1=O)Oc1ccc(-c2ccc(Cl)cc2)cc1	-	RD	>12.5 µM
CCOC(=O)c1cc(C#N)c2[nH]c3ccccc3n2c1=O	-	HEP-2	>100 µg/mL
Cc1cn([C@@H]2O[C@H](COC(c3ccccc3)(c3ccccc3)c3ccccc3)[C@@H](N=[N+]=[N-])[C@H]2F)c(=O)[nH]c1=O	-	HL-60	>1000 µM
CCN(CC)C(=O)OCC1CN(C(=S)c2cc(OC)c(OC)c(OC)c2)CCN1C(=O)c1cc(OC)c(OC)c(OC)c1	neutral red	MDM	>10 µM
CCCCN1C(=O)c2ccccc2N(C(=O)c2ccc(C)cc2)S1(=O)=O	-	MRC-5	59.4 µM
O=c1oc(-c2ccc(OCc3ccccn3)cc2)cc(O)c1SCCc1ccccc1	-	CH-1	13.6 µM
CC(C)CC1(Cc2ccccc2)OS(=O)(=O)C=C1OCc1ccccc1	-	HEL fibroblasts	102 µM
CCOC(=O)CCCCCOc1cccc(CN(C(=O)c2ccc(-c3cccc(-c4nnc(C)o4)c3)cc2)C(C)C)c1	-	BJ	>20 µM
O=C1C[C@H](Cc2ccco2)N1C(=O)NCc1ccc([N+](=O)[O-])cc1	MTT	COS-7	>261 µM
CCO/N=C/c1ccc(OCCC2CCN(c3ccc(OCC(F)(F)F)nn3)CC2)cc1	visual reading	MRC-5	>1 µg/mL
O=S(=O)(NCCc1ccc2c(n1)NCCC2)c1ccc2ccccc2c1	-	PBMC	50 µM
C[C@H](C[C@H](OC(=O)CC(C)(C)C)[C@@H](OC(=O)CC(C)(C)C)C(C)(C)O)C1=C2C[C@H](OC(=O)CC(C)(C)C)[C@H]3[C@@]4(C)CCC(=O)C(C)(C)[C@@H]4CC[C@]3(C)[C@@]2(C)CC1	-	HepG2.2.15	>1200 µM
CCOC(=O)c1cc(NC(=O)c2ccccc2)c(=O)n2c1[nH]c1ccccc12	-	HEP-2	40 µg/mL
O=S(=O)(NCCc1ccc2c(n1)NCCC2)c1ccc(Cl)c(Cl)c1	-	PBMC	50 µM
CC1=C(C)[C@@](C)(CO)C[C@H]1n1cnc2c(N)ncnc21	-	DAVIS	>100 µg/mL
Cc1cn([C@@H]2O[C@H](COC(c3ccccc3)(c3ccccc3)c3ccccc3)C[C@@H]2O)c(=O)[nH]c1=O	-	HL-60	>1000 µM
O=c1[nH]cnc2c1ncn2[C@@H]1O[C@H](CO)C[C@@H]1F	-	ATH8	>100 µM
C[C@H](C[C@H](OC(=O)c1ccccc1I)[C@@H](OC(=O)c1ccccc1I)C(C)(C)O)C1=C2C[C@H](OC(=O)c3ccccc3I)[C@H]3[C@@]4(C)CCC(=O)C(C)(C)[C@@H]4CC[C@]3(C)[C@@]2(C)CC1	-	HepG2.2.15	>1500 µM
C[C@H](NC(=O)NCCc1ccc2c(n1)NCCC2)c1ccc2ccccc2c1	-	PBMC	50 µM
O=c1[nH]c(=O)n([C@@H]2O[C@H](CO)[C@@H](O)[C@@H]2O)cc1/C=C/Br	-	WI-38	>75 µM

The last 9 rows once more:

smiles | read by | cells | result
C[C@H](C[C@H](OC(=O)CC(C)(C)C)[C@@H](OC(=O)CC(C)(C)C)C(C)(C)O)C1=C2C[C@H](OC(=O)CC(C)(C)C)[C@H]3[C@@]4(C)CCC(=O)C(C)(C)[C@@H]4CC[C@]3(C)[C@@]2(C)CC1 | - | HepG2.2.15 | >1200 µM
CCOC(=O)c1cc(NC(=O)c2ccccc2)c(=O)n2c1[nH]c1ccccc12 | - | HEP-2 | 40 µg/mL
O=S(=O)(NCCc1ccc2c(n1)NCCC2)c1ccc(Cl)c(Cl)c1 | - | PBMC | 50 µM
CC1=C(C)[C@@](C)(CO)C[C@H]1n1cnc2c(N)ncnc21 | - | DAVIS | >100 µg/mL
Cc1cn([C@@H]2O[C@H](COC(c3ccccc3)(c3ccccc3)c3ccccc3)C[C@@H]2O)c(=O)[nH]c1=O | - | HL-60 | >1000 µM
O=c1[nH]cnc2c1ncn2[C@@H]1O[C@H](CO)C[C@@H]1F | - | ATH8 | >100 µM
C[C@H](C[C@H](OC(=O)c1ccccc1I)[C@@H](OC(=O)c1ccccc1I)C(C)(C)O)C1=C2C[C@H](OC(=O)c3ccccc3I)[C@H]3[C@@]4(C)CCC(=O)C(C)(C)[C@@H]4CC[C@]3(C)[C@@]2(C)CC1 | - | HepG2.2.15 | >1500 µM
C[C@H](NC(=O)NCCc1ccc2c(n1)NCCC2)c1ccc2ccccc2c1 | - | PBMC | 50 µM
O=c1[nH]c(=O)n([C@@H]2O[C@H](CO)[C@@H](O)[C@@H]2O)cc1/C=C/Br | - | WI-38 | >75 µM

CCn is the concentration with n% toxicity to the cells. An empty or dashed field is not shown.